A mixed list of measured activities; the numbers were collected in NIAID ChemDB.

Common to all: growth or infection tests; agent: Human cytomegalovirus; cells: HEL; read-out: EC50

ECn is the concentration giving n% inhibition of infection, replication or growth. Conditions beyond the fields shown may differ between rows.

CCOC(=O)c1cc(O)c(O)c(O)c1 ; strain or isolate: DAVIS ; method: plaque count ; value: 7.4 µg/mL
Nc1ncnc2c1ccn2[C@H]1C[C@H](O)[C@@H](COP(=O)(O)COC(=O)[C@@H](N)CC(=O)O)O1 ; strain or isolate: AD169 ; value: >100 µM
C[C@@H](O)C1=C[C@@H](n2cnc3c(N)ncnc32)[C@H](O)[C@@H]1O ; strain or isolate: DAVIS (20 PFU) ; method: plaque count ; value: 0.35 µg/mL
O=C(O)Cc1cc(O)ccc1O ; strain or isolate: DAVIS ; method: cytopathic effect ; value: 1.5 µg/mL
Nc1ccn(C[C@@H](CO)OCP(=O)(O)O)c(=O)n1 ; strain or isolate: AD169 ; method: plaque count ; value: 0.2 µg/mL
Cc1cc(O)cc(O)c1CC(=O)O ; strain or isolate: DAVIS ; method: cytopathic effect ; value: >25 µg/mL
Nc1nc2c(ncn2[C@H]2C=C[C@@H](CO)CC2)c(=O)[nH]1 ; strain or isolate: DAVIS ; method: plaque count ; value: 3.97 µg/mL
C[C@]12CC[C@@H]3c4ccc(O)cc4CC[C@H]3[C@@H]1CC[C@@H]2O ; strain or isolate: TOWNE ; method: virus yield ; value: >20 µM
O=c1[nH]cccc1O ; strain or isolate: AD169 ; method: plaque count ; value: >200 µg/mL
C[C@H](N)C(=O)OCP(=O)(OC[C@H]1O[C@@H](n2ccc3c(N)ncnc32)C[C@@H]1O)Oc1ccccc1 ; strain or isolate: AD169 ; value: >100 µM
Nc1ncc2ncn(CCOCP(=O)(O)O)c2n1 ; strain or isolate: 2 strains ; method: plaque count ; value: 200 µg/mL
Nc1ccnc2c1ncn2[C@H]1C[C@H](O)[C@@H](COP(=O)(O)COC(=O)[C@@H](N)CC(=O)O)O1 ; strain or isolate: AD169 ; value: >100 µM
COC(=O)c1cc(O)c(O)c(O)c1 ; strain or isolate: AD169 ; method: plaque count ; value: 6.7 µg/mL
Nc1ncnc2c1ncn2[C@@H]1C[C@H](CO)[C@@H](O)[C@H]1O ; strain or isolate: AD-169 (20 PFU) ; method: plaque count ; value: >100 µg/mL
Nc1nc2c(ncn2[C@@H]2C=C[C@H](CO)CC2)c(=O)[nH]1 ; strain or isolate: LY9990 ; method: plaque count ; value: 0.38 µg/mL
Oc1cccc(O)c1O ; strain or isolate: AD169 ; method: cytopathic effect ; value: 4 µg/mL
Cc1cn(CC(CO)OCP(=O)(O)O)c(=O)[nH]c1=O ; strain or isolate: 2 strains ; method: plaque count ; value: 100 µg/mL
CCCOC(=O)c1cc(O)c(O)c(O)c1 ; strain or isolate: DAVIS ; method: plaque count ; value: 16 µg/mL
Nc1ncnc2c1ncn2CCOCP(=O)(O)O ; strain or isolate: 2 strains ; method: plaque count ; value: 25 µg/mL
C(/C=C/c1ccccc1)=C\c1ccccc1 ; strain or isolate: TOWNE ; method: virus yield ; value: >50 µM
C[C@H](O)C1=C[C@@H](n2cnc3c(N)ncnc32)[C@H](O)[C@@H]1O ; strain or isolate: AD-169 (100 PFU) ; method: cytopathic effect ; value: >100 µg/mL
Nc1nc2c(ncn2CCOCP(=O)(O)O)c(=O)[nH]1 ; strain or isolate: 2 strains ; method: plaque count ; value: 0.25 µg/mL
O=C(O)c1cc(O)c(O)c(O)c1 ; strain or isolate: AD169 ; method: cytopathic effect ; value: 3 µg/mL
Nc1nccc2c1ncn2[C@H]1C[C@H](O)[C@@H](CO)O1 ; strain or isolate: AD169 ; value: >100 µM
c1ccc([C@H]2O[C@@H]2c2ccccc2)cc1 ; strain or isolate: TOWNE ; method: virus yield ; value: >50 µM
CC(C)(C)C(=O)OCOC(=O)CN(CC(=O)OCOC(=O)C(C)(C)C)P(=O)(OC[C@H]1O[C@@H](n2ccc3c(N)ncnc32)C[C@@H]1O)Oc1ccccc1 ; strain or isolate: DAVIS ; value: >100 µM
NCC(O)c1ccc(O)c(O)c1 ; strain or isolate: DAVIS ; method: plaque count ; value: 88 µg/mL
O=c1ccn(CC(CO)OCP(=O)(O)O)c(=O)[nH]1 ; strain or isolate: 2 strains ; method: plaque count ; value: 25 µg/mL
O=C(O)Cc1ccc(O)c(O)c1 ; strain or isolate: DAVIS ; method: cytopathic effect ; value: 2.5 µg/mL
Br[C@H](c1ccccc1)[C@H](Br)c1ccccc1 ; strain or isolate: TOWNE ; method: virus yield ; value: >50 µM
O=C(O)C[C@H](NCCN[C@@H](CC(=O)O)C(=O)O)C(=O)O ; strain or isolate: DER530 (GCV HPMPC-resistant) ; method: plaque count ; value: 7.4 µg/mL
Cc1cc(=O)oc2cc(O)c(O)cc12 ; strain or isolate: AD169 ; method: plaque count ; value: 9.9 µg/mL
O=c1[nH]cnc2c1ncn2CCOCP(=O)(O)O ; strain or isolate: 2 strains ; method: plaque count ; value: 200 µg/mL
CC(C)NCC(O)c1ccc(O)c(O)c1 ; strain or isolate: DAVIS ; method: plaque count ; value: 70 µg/mL
c1ccc(C2O[C@@H]2c2ccccc2)cc1 ; strain or isolate: TOWNE ; method: virus yield ; value: >50 µM

Repeating the first 4 entries:

{"smiles": "CCOC(=O)c1cc(O)c(O)c(O)c1", "strain or isolate": "DAVIS", "method": "plaque count", "value": "7.4 µg/mL"}
{"smiles": "Nc1ncnc2c1ccn2[C@H]1C[C@H](O)[C@@H](COP(=O)(O)COC(=O)[C@@H](N)CC(=O)O)O1", "strain or isolate": "AD169", "value": ">100 µM"}
{"smiles": "C[C@@H](O)C1=C[C@@H](n2cnc3c(N)ncnc32)[C@H](O)[C@@H]1O", "strain or isolate": "DAVIS (20 PFU)", "method": "plaque count", "value": "0.35 µg/mL"}
{"smiles": "O=C(O)Cc1cc(O)ccc1O", "strain or isolate": "DAVIS", "method": "cytopathic effect", "value": "1.5 µg/mL"}